Measured values from several laboratories, pooled; numbers as filed in NIAID ChemDB.

Common to all: tests in culture; organism: Mycobacterium tuberculosis

Blank or dashed fields: not listed here. MIC bound comes from a single tested concentration. ECn: concentration that inhibits the pathogen or its effect by n%. Conditions beyond the fields shown may differ between rows. Inhibition is in % at the dose shown (toxicity tests: loss of growth or viability).

compound,measure,tested at,read by,strain or isolate,value
CCCCCCCCCCCCOS(=O)(=O)O,MIC,,,H37Rv,>100 µg/mL
COc1ccc(CNCCNCc2ccccc2Cl)c(OC)c1,MIC,,,,50 µM
COc1ccc2ccccc2c1C(=O)CCC(=O)O,MIC,,,H37Rv,>100 µg/mL
FC(F)(F)c1ccc(CNCCNCCc2ccc(Cl)cc2Cl)cc1,MIC,,,,50 µM
O=C(Nc1ccc(O)cc1)c1ccccc1,MIC,,,H37Rv,>100 µg/mL
c1cc(CN2CCNCCNCCNCC2)cc(CN2CCNCCNCCNCC2)c1,inhibition,6.25 µg/mL,resazurin,H37Rv,-3%
O=S(c1cc(Br)ccc1O)c1cc(Br)ccc1O,MIC,,,H37Rv,100 µg/mL
CCCCC(CC)CN1CN(CC(CC)CCCC)CC(C)(NCCNCc2ccccc2Sc2ccccc2CO)C1,MIC,,,,25 µM
CO[C@H]1/C=C/O[C@@]2(C)Oc3c(C)c(O)c4c(O)c(c5c(c4c3C2=O)NC2(CCN(CC(C)C)CC2)N=5)=NC(=O)/C(C)=C\C=C\[C@H](C)[C@H](O)[C@@H](C)[C@@H](O)[C@@H](C)[C@H](OC(C)=O)[C@@H]1C,MBC,,,2219 (rifampin-resistant),0.8 µg/mL
O=C(c1ccccc1)N(Cc1ccccc1)Cc1ccccc1,MIC,,,H37Rv,>100 µg/mL
COc1ccc(CNCCNCCCCc2ccccc2)cc1OC,MIC,,,,12.5 µM
NC(C(=O)O)c1ccccc1,MIC,,,H37Rv,50 µg/mL
CCCCC(CC)CN1CN(CC(CC)CCCC)CC(C)(NCCNC2CCCCCCC2)C1,MIC,,,,12.5 µM
COc1ccc(CNCCNC(C)c2cccc3ccccc23)cc1OC,MIC,,,,50 µM
CCOC(=O)Nc1cc2nc(C)cnc2c(NC(=O)OCC)n1,EC50,,,H37Rv,>12.5 µg/mL
Nc1ccc(Sc2ccc(Cl)cc2)c(N)c1,MIC,,,H37Rv,>100 µg/mL
CC(C)c1ccc2c(c1)CC[C@H]1[C@](C)(CNCCN[C@H]3C[C@@H]3c3ccccc3)CCC[C@]21C,MIC,,,,50 µM
COc1ccccc1CCNCCNCc1ccccc1F,MIC,,,,50 µM
CCOC(=O)Nc1cc(N)c([N+](=O)[O-])c(NC(=O)OCC)n1,EC50,,,H37Rv,>12.5 µg/mL
CC(C)N=c1cc2n(-c3ccc(Cl)cc3)c3ccccc3nc-2cc1Nc1ccc(Cl)cc1,MIC,,broth dilution / resazurin,MDR2,8 µg/mL
CC(CNCCC(c1ccccc1)c1ccccc1)NC1CCCCCCC1,MIC,,,,12.5 µM
COc1ccc(Nc2ccc(OC)cc2)cc1,MIC,,,H37Rv,>100 µg/mL
CC(NCCNCc1ccccc1Sc1ccccc1CO)C12CC3CC(CC(C3)C1)C2,MIC,,,,50 µM
COc1ccc(O)c(C(=O)/C=C/c2ccco2)c1,EC50,,,,>12.5 µg/mL
CO/N=C/c1cc(NC(=S)c2ccoc2C)ccc1Cl,inhibition,12.5 µg/mL,BACTEC,H37Rv,77%
COc1ccccc1CCNCCNCCc1ccc(OC)c(OC)c1,MIC,,,,50 µM
CCNCCNc1ccc(CO)c2sc3ccccc3c(=O)c12,MIC bound,,BACTEC,H37Rv,>12.5 µg/mL
O=[N+]([O-])c1cccc2cn[nH]c12,MIC,,,H37Rv,>100 µg/mL
CC1(C)[C@H]2CC[C@@H](CNCCNC3CCCCCCC3)[C@@H]1C2,MIC,,,,12.5 µM
NNC(=O)C(=O)Nc1ccc(F)cc1,inhibition,12.5 µg/mL,BACTEC,H37Rv,46%
O=C1CC(c2ccccc2)Oc2ccc(Br)cc21,inhibition,12.5 µg/mL,,H37Rv,0%
CCOC(=O)Nc1cc(NCCc2ccc(S(N)(=O)=O)cc2)c2nccnc2n1,EC50,,,H37Rv,>12.5 µg/mL
O=c1cc(O)n(-c2nc3ccccc3s2)[nH]1,MIC,,,H37Rv,>100 µg/mL
CC(CNC[C@@H]1CC[C@H]2C[C@@H]1C2(C)C)N[C@H]1C[C@H]2CC[C@]1(C)C2(C)C,MIC,,,,50 µM
CCN(CC)Cc1cc(Nc2c(C)cnc3cc(Cl)ccc23)ccc1O,MIC,,,H37Rv,50 µg/mL
NCC[C@H](O)C(=O)N[C@@H]1C[C@H](N)[C@@H](O[C@H]2O[C@H](CN)[C@@H](O)[C@H](O)[C@H]2O)[C@H](O)[C@H]1O[C@H]1O[C@H](CO)[C@@H](O)[C@H](N)[C@H]1O,MIC,,,TN3806 (W1),>256 µg/mL
CO[C@H]1/C=C/O[C@@]2(C)Oc3c(C)c(O)c4c(=O)c(c5oc6cc(N7CCN(CC(C)C)CC7)cc(=O)c6nc5c4c3=C2O)NC(=O)/C(C)=C\C=C\[C@H](C)[C@H](O)[C@@H](C)[C@@H](O)[C@@H](C)[C@H](OC(C)=O)[C@@H]1C,MBC,,,2227 (rifampin-resistant),0.05 µg/mL
CCCCN1CCN(CCCC)C1=O,inhibition,12.5 µg/mL,BACTEC,H37Rv,13%
CC(C)c1ccc(CC(=O)O)cc1,MIC,,,H37Rv,100 µg/mL
CCOC(=O)Nc1cc2c(c(N)n1)N=C(c1ccc(C)c(C)c1)CN2,EC50,,,H37Rv,<12.5 µg/mL
C=CCN1CCN(c2ccncc2S(=O)(=O)N2CCN(C)CC2)CC1,MIC bound,,resazurin,H37Rv,>6.25 µg/mL
CC1(C)[C@@H]2CC[C@@]1(C)[C@@H](NCCNC1CCCCCCC1)C2,MIC,,,,12.5 µM
CC(CO)CCC1OC2CC3C4CCC5CC(O)CCC5(C)C4CCC3(C)C2C1C,inhibition,12.5 µg/mL,BACTEC,H37Rv,18%
Nc1ncccc1/C=C/C(=O)c1ccc2c(c1)-c1ccccc1C2,EC50,,,H37Rv,<12.5 µg/mL
CC(C)/C=N/n1c(N)c(C#N)c(C#N)c1C(C)C,inhibition,6.25 µg/mL,resazurin,H37Rv,-5%
Cl.OCCOc1cccc2cccnc12,MIC,,,H37Rv,>100 µg/mL
COc1ccc2nc(NCCNCCO)cc(NCCNCCO)c2c1.O=C(O)/C=C\C(=O)O.O=C(O)/C=C\C(=O)O.O=C(O)/C=C\C(=O)O,inhibition,12.5 µg/mL,BACTEC,H37Rv,44%
COc1cc(N)cc2c1NC(C)CC2.O=S(=O)(O)O,MIC,,,H37Rv,>100 µg/mL
O=C(N/N=C/c1cccnc1)C(=O)Nc1cccc(C(F)(F)F)c1,MIC bound,,BACTEC,H37Rv,>12.5 µg/mL
O=C(O)c1ccnc(C(=O)O)c1,MIC,,,H37Rv,50 µg/mL
CC1(C)CCCN1CCCN1c2ccccc2Sc2ccc(Cl)cc21.Cl,inhibition,12.5 µg/mL,BACTEC,H37Rv,99%
Cn1c(=O)c(-c2cccc(S(=O)(=O)O)c2)c2c3c(c(NC4CCCCC4)ccc31)C(=O)c1ccccc1-2.N,MIC,,,H37Rv,>100 µg/mL
Cn1cc(N)cc1C(=O)Nc1cc(C(=O)Nc2ccc(S(=O)(=O)O)c3cc(S(=O)(=O)O)ccc23)n(C)c1,inhibition,12.5 µg/mL,BACTEC,H37Rv,0%
CCOC(=O)Nc1cc(N)c2c(c1)N[C@@H](C)C(c1ccccc1)=N2,EC50,,,H37Rv,>12.5 µg/mL
CN1CC2CCC(CC1=O)N2C,MIC bound,,BACTEC,H37Rv,>12.5 µg/mL
c1ccc(C(CCNCCN2CCCCC2)c2ccccc2)cc1,MIC,,,,50 µM
O=C1CS(=O)(=O)[C@H](c2ccccn2)N1CCN1C(=O)CS(=O)(=O)[C@H]1c1ccccn1,inhibition,12.5 µg/mL,BACTEC,H37Rv,0%
OCCC[n+]1ccccc1.[Cl-],MIC,,,H37Rv,>100 µg/mL
Cc1ccc(NC(=O)c2cnccn2)c(=O)o1,inhibition,6.25 µg/mL,BACTEC,H37Rv,21%
Cc1[nH]ccc1C(=O)O,MIC,,,H37Rv,>100 µg/mL
NC(=O)C(=CNC(=S)Nc1ccccc1)C(N)=O,inhibition,6.25 µg/mL,BACTEC,H37Rv,68%
CCCCCCCCCCCCCCCCS,MIC,,,H37Rv,>100 µg/mL
Cc1ccc(OS(=O)(=O)c2ccccc2[N+](=O)[O-])cc1,inhibition,12.5 µg/mL,BACTEC,H37Rv,25%
CC(NCCNCc1ccc(C(F)(F)F)cc1)c1c[nH]c2ccccc12,MIC,,,,25 µM
O=C1C(O)C(O)C(O)C(O)C1O,MIC bound,,BACTEC,H37Rv,>12.8 µg/mL
COc1cc(OC)c2c(c1)OC(c1ccc(OC)c(I)c1)CC2=O,inhibition,12.5 µg/mL,,,0%
O=S1c2ccccc2Sc2ccccc21,inhibition,6.25 µg/mL,BACTEC,H37Rv,18%
CCOC(=O)C(CCOc1ccccc1)C(=O)OCC,MIC,,,H37Rv,12.5 µg/mL
NNC(=O)c1ccc(N)cc1O,inhibition,12.5 µg/mL,BACTEC,H37Rv,97%
CC1(C)[C@H]2CC[C@@H](CNCCNCCCCCO)[C@@H]1C2,MIC,,,,50 µM

Repeating the first 6 entries:

{"compound": "CCCCCCCCCCCCOS(=O)(=O)O", "measure": "MIC", "strain or isolate": "H37Rv", "value": ">100 µg/mL"}
{"compound": "COc1ccc(CNCCNCc2ccccc2Cl)c(OC)c1", "measure": "MIC", "value": "50 µM"}
{"compound": "COc1ccc2ccccc2c1C(=O)CCC(=O)O", "measure": "MIC", "strain or isolate": "H37Rv", "value": ">100 µg/mL"}
{"compound": "FC(F)(F)c1ccc(CNCCNCCc2ccc(Cl)cc2Cl)cc1", "measure": "MIC", "value": "50 µM"}
{"compound": "O=C(Nc1ccc(O)cc1)c1ccccc1", "measure": "MIC", "strain or isolate": "H37Rv", "value": ">100 µg/mL"}
{"compound": "c1cc(CN2CCNCCNCCNCC2)cc(CN2CCNCCNCCNCC2)c1", "measure": "inhibition", "tested at": "6.25 µg/mL", "read by": "resazurin", "strain or isolate": "H37Rv", "value": "-3%"}